Results of unrelated studies side by side (data: NIAID ChemDB).

Shared fields: host cell toxicity; cells: C8166; measure: CC50

Blank or dashed fields: not listed here. CCn: concentration that lowers growth or viability of the cells by n%. Conditions beyond the fields shown may differ between rows.

compound | read by | result
Cc1cn([C@H]2C[C@H](N=[N+]=[N-])[C@@H](CO)O2)c(=O)[nH]c1=O | fluorescence | >100 µM
COC(=O)[C@@H](NP(=O)(N[C@H](C(=O)OC)C(C)C)OC[C@H]1O[C@@H](n2cc(C)c(=O)[nH]c2=O)C[C@@H]1N=[N+]=[N-])C(C)C | - | >100 µM
NCCCC[C@H](NC(=O)OCc1ccccc1)C(=O)NCCCCCC(=O)N[C@@H](CCCCN)C(=O)OCc1ccccc1 | XTT | 200 µM
CC1=C(O[C@H](CC(=O)O)c2ccccc2)C(=O)C(C)(C)C1=O | MTT | >200 µM
CCC(=O)c1cn(S(=O)(=O)c2ccc(Cl)cc2)c2cc(C)ccc12 | MTT | >200 µg/mL
CC1=CC[C@@H]([C@@H](C)[C@H]2CC[C@@]3(C)[C@@H]4[C@@H](O)C[C@H]5C(C)(C)OC(=O)C=C[C@@]56C[C@@]46CC[C@]23C)OC1=O | MTT | 47.61 µg/mL
O=C(O)C/C(=C/C(=O)NCCCC[C@H](NC(=O)OCc1ccccc1)C(=O)N[C@@H](CCCCNC(=O)/C=C(/CC(=O)O)C(=O)O)C(=O)OCc1ccccc1)C(=O)O | XTT | 250 µM
CC(C)(C)c1ccc(OCc2ccccc2)cc1 | MTT | 118 µg/mL
CCOc1cc(/C=C2\SC(=O)N(CC(=O)c3ccccc3)C2=O)c(Br)cc1OCc1ccc(C(=O)O)cc1 | - | 26.36 µg/mL
CC1=C(O)c2c(oc(-c3ccccc3)cc2=O)C(C)(C)C1=O | MTT | >200 µM
Cc1ccccc1S(=O)(=O)c1c(C(=O)NCCO)[nH]c2ccc(Cl)cc12 | MTT | >100 µM
COC(=O)CNP(=O)(NCC(=O)OC)OC[C@H]1O[C@@H](n2cc(C)c(=O)[nH]c2=O)C[C@@H]1N=[N+]=[N-] | - | >100 µM
Cc1cc(S(N)(=O)=O)ccc1NC(=O)COc1ccc(F)cc1Oc1cc2ccccc2cc1C | MTT / absorbance | 66.87 µM
CCCNP(=O)(NCCC)OC[C@H]1O[C@@H](n2cc(C)c(=O)[nH]c2=O)C[C@@H]1N=[N+]=[N-] | - | >100 µM
Cc1ccc2c(C=O)c[nH]c2c1 | MTT | 261 µM
Nc1cc2c(=O)c(C(=O)O)cn(N3CCN(c4ccccn4)CC3)c2cc1Cl | - | >1000 µM
N#Cc1ccc2c(c1)c(C=O)cn2S(=O)(=O)c1ccc(Cl)c([N+](=O)[O-])c1 | MTT | 27.4 µM
COc1cc(C[C@@H](C)[C@@H](C)Cc2cc(O)c(OC)c(OC)c2)cc(O)c1OC | MTT | 10.09 µg/mL
CCC(=O)c1cn(S(=O)(=O)c2ccc(CC)cc2)c2ccc(C#N)cc12 | MTT | 142.8 µg/mL
CCCCCCCCC(=O)O[C@@]12[C@H](OC(=O)/C=C/c3ccc(Cl)cc3)[C@@H](C)[C@@]3(O)[C@@H](C=C(CO)C[C@]4(O)C(=O)C(C)=C[C@@H]34)[C@@H]1C2(C)C | MTT | 33.5 µM
Cc1ccc2c(C=O)cn(S(=O)(=O)c3ccc(Cl)cc3)c2c1 | MTT | 77.02 µM
C=C(C)[C@@]12OC3(C)O[C@@H]1[C@@H]1[C@H](O)[C@@](C)(O)[C@@H](O)[C@@]4(O)[C@@H](C=C(C)[C@@H]4OC(C)=O)[C@@]1(O3)[C@H](C)[C@@H]2OC(=O)c1ccccc1 | MTT | 56.5 µg/mL
Clc1ccc(OCc2ccccc2)cc1 | MTT | 106 µg/mL
O=S(=O)(Oc1ccc(N=Nc2ccc(N=Nc3ccc(OS(=O)(=O)c4ccc(Br)cc4)c4ncccc34)cc2)c2cccnc12)c1ccc(Br)cc1 | MTT | 102 µg/mL
Cc1ccc(C)c(NS(=O)(=O)c2cc(C(=O)NCc3ccccn3)ccc2Cl)c1 | WST | 163 µM
O=C(NCCO)c1[nH]c2ccc(Cl)cc2c1Sc1ccccc1 | MTT | >100 µM
CCC(=O)c1cn(S(=O)(=O)c2ccc(OC)cc2)c2cc(C)ccc12 | MTT | 80.1 µg/mL
Cc1ccc(Sc2c(C(=O)NCCO)[nH]c3ccc(Cl)cc23)c(C)c1 | MTT | >100 µM
COc1cc(O)c(CC=C(C)C)c(O)c1C(=O)/C=C/c1ccc(O)cc1 | MTT | 21.51 µM
O=C(O)c1cn(Cc2ccccc2)c2ccc(Cc3cccc(Cl)c3F)c(O)c2c1=O | - | 15.9 µM
NCCCC[C@H](NC(=O)[C@H](CCCCN)NC(=O)[C@H](CCCCN)NC(=O)c1ccccc1)C(N)=O | XTT | 300 µM
CCC(=O)c1cn(S(=O)(=O)c2ccc(C)cc2)c2ccc(C#N)cc12 | MTT | >200 µg/mL
O=Cc1cn(S(=O)(=O)c2cccc([N+](=O)[O-])c2)c2ccccc12 | MTT | 305 µM
O=[N+]([O-])c1ccc(COc2ccc([N+](=O)[O-])cc2)cc1 | MTT | 169 µg/mL
C=C[C@]1(C)[C@@H](O)CC2=C(CCC3C(C)(C)C(=O)CC[C@]23C)[C@@H]1O | - | >629 µM
COc1ccc([C@]2(OC)O[C@@H](c3cc(OC)c(OC)c(OC)c3)[C@@]3(C)O[C@@]23C)cc1OC | MTT | 106 µg/mL
C[C@@H]1C2[C@H](O)C[C@@]34C=C[C@@](C)(CCC3[C@@]23CC[C@@H]1OC3=O)C4 | - | 111 µM
NC(=O)c1cc2c([nH]c3ccccc32)c(-c2ccc(CO)o2)n1 | MTT | 119 µM
O=C1N[C@H](Cc2ccccc2)C(=O)NC1Cc1c[nH]c2c([C@]34C[C@H]5C(=O)N[C@H](Cc6ccccc6)C(=O)N5[C@H]3Nc3ccccc34)cccc12 | - | >100 µM
O=C(O)CCC(=O)NCCCC[C@H](NC(=O)OCc1ccccc1)C(=O)NCCCCCC(=O)N[C@@H](CCCCNC(=O)CCC(=O)O)C(=O)OCc1ccccc1 | XTT | 400 µM
CS(=O)(=O)Oc1ccc(N=Nc2ccc(N=Nc3ccc(OS(C)(=O)=O)c4ncccc34)cc2)c2cccnc12 | MTT | 7.55 µg/mL
COc1cc(C(OC(=O)c2ccc3c(c2)OCO3)[C@H](C)C(C)O)ccc1O | MTT | 111.3 µg/mL
CC1=C[C@H]2[C@@]3(O)[C@H](C)[C@@H](OC(=O)CCCCC4SCC5NC(=O)NC54)[C@]4(O)[C@H]([C@@H]3C=C(CO)C[C@]2(O)C1=O)C4(C)C | MTT | >200 µM
Cc1cc(S(N)(=O)=O)ccc1NC(=O)COc1ccc(Cl)cc1C(=O)c1cc(Cl)cc(C#N)c1 | MTT / absorbance | >386 µM
CC(=O)OCC1=C[C@H]2[C@@H]3C(C)(C)[C@]3(OC(C)=O)[C@H](OC(C)=O)[C@@H](C)[C@]2(O)[C@@H]2C=C(C)C(=O)[C@@]2(O)C1 | MTT | >200 µM
CCCNP(=O)(OCC)OC[C@H]1O[C@@H](n2cc(C)c(=O)[nH]c2=O)C[C@@H]1N=[N+]=[N-] | - | >100 µM
O=S(=O)(Oc1ccc(N=Nc2ccc(N=Nc3ccc(OS(=O)(=O)c4ccc(Cl)cc4)c4ncccc34)cc2)c2cccnc12)c1ccc(Cl)cc1 | MTT | 98.31 µg/mL
CC(C)(C)NC(=O)[C@@H]1C[C@@H]2CCCC[C@@H]2CN1C[C@@H](O)[C@H](Cc1ccccc1)NC(=O)[C@@H]1CCCS(=O)(=O)C1 | - | 48 µM
CCN1c2ncc(CCc3ccncc3)cc2C(=O)N(C)c2cccnc21 | - | >60 µM
CC(=O)N/C=C/c1ccccc1F | MTT | 341 µM
CCC(=O)c1cn(S(=O)(=O)c2cccc([N+](=O)[O-])c2)c2ccc(C#N)cc12 | MTT | >200 µg/mL
COC(=O)[C@H](C)NP(=O)(N[C@@H](C)C(=O)OC)OC[C@H]1O[C@@H](n2cc(C)c(=O)[nH]c2=O)C[C@@H]1N=[N+]=[N-] | - | >100 µM
COC(=O)C[C@@H](OC1=C(C)C(=O)C(C)(C)C1=O)c1ccccc1 | MTT | >200 µM
Cc1cc(C)cc(S(=O)(=O)c2c(C(=O)NCCO)[nH]c3ccc(Cl)cc23)c1 | MTT | >100 µM
CCCCCCCC(=O)O[C@@H]1[C@@H](C)[C@@]2(O)[C@@H](C=C(CO)C[C@]3(O)C(=O)C(C)=C[C@@H]23)[C@@H]2C(C)(C)[C@]12OC(=O)CCCCCCC | MTT | 22.7 µM
O=C(O)[C@H]1O[C@@H](Oc2cc3oc(-c4ccc(O)cc4)cc(=O)c3c(O)c2O)[C@H](O)[C@@H](O)[C@@H]1O | MTT | 945 µM
CCOP(=O)(NCCCCCC(=O)OC)OC[C@H]1O[C@@H](n2cc(C)c(=O)[nH]c2=O)C[C@@H]1N=[N+]=[N-] | - | >100 µM
Cc1cccc(OCc2ccccc2)c1 | MTT | 135 µg/mL
Cc1ccc(S(=O)(=O)n2cc(C=O)c3ccc(C)cc32)cc1 | MTT | 152 µM
CCN1c2ncc(CCc3ccncc3)cc2C(=O)N(C)c2ccc(Cl)nc21 | - | >60 µM
CC(C)(C)NC(=O)[C@@H]1CN(Cc2cccnc2)CCN1C[C@@H](O)C[C@@H](Cc1ccccc1)C(=O)N[C@H]1c2ccccc2C[C@H]1O | MTT | >100 µM
Cc1cc(S(N)(=O)=O)ccc1NC(=O)COc1ccc(Cl)cc1Oc1ccc2ccccc2c1Cl | MTT / absorbance | 40.72 µM
O=C(CCCCCNC(=O)[C@H](CCCCNC(=O)c1cccc(O)c1C(=O)O)NC(=O)OCc1ccccc1)N[C@@H](CCCCNC(=O)c1cccc(O)c1C(=O)O)C(=O)OCc1ccccc1 | XTT | 40 µM
O=C(/C=C/c1ccc(O)cc1)OC[C@@H]1OC(Oc2ccc(C(=O)/C=C/c3ccc(O)c(O)c3)c(O)c2O)[C@@H](O)[C@H](O)[C@H]1O | - | 250 µM
Cc1cc(S(N)(=O)=O)ccc1NC(=O)COc1ccc(F)cc1Oc1c(C)cc2ccccc2c1Cl | MTT / absorbance | 55.6 µM
C[C@H]1C[C@@]2(OC1=O)O[C@@]13O[C@]4(CC[C@@]5(C)C(=O)[C@H](C)[C@@H]2[C@@H]15)C[C@@]12OC(=O)C[C@@H]1O[C@](C)(CO)[C@H]2CCC4=C3O | MTT | >200 µg/mL
O=Cc1cn(S(=O)(=O)c2ccc(Cl)c([N+](=O)[O-])c2)c2ccccc12 | MTT | 12.12 µM
Cc1ccccc1Sc1c(C(=O)NNCCO)[nH]c2ccc(Cl)cc12 | MTT | >100 µM
O=[N+]([O-])c1ccccc1OCc1ccccc1 | MTT | 117 µg/mL

5 of the rows above, restated:

compound	read by	result
Cc1ccc2c(C=O)c[nH]c2c1	MTT	261 µM
CC1=C(O)c2c(oc(-c3ccccc3)cc2=O)C(C)(C)C1=O	MTT	>200 µM
Clc1ccc(OCc2ccccc2)cc1	MTT	106 µg/mL
CC(C)(C)NC(=O)[C@@H]1C[C@@H]2CCCC[C@@H]2CN1C[C@@H](O)[C@H](Cc1ccccc1)NC(=O)[C@@H]1CCCS(=O)(=O)C1	-	48 µM
CC1=C(O[C@H](CC(=O)O)c2ccccc2)C(=O)C(C)(C)C1=O	MTT	>200 µM